Results of unrelated studies side by side (data: NIAID ChemDB).

Shared fields: tests in culture; organism: Human cytomegalovirus

ECn is the concentration giving n% inhibition of infection, replication or growth. Blank or dashed fields: not listed here. Conditions beyond the fields shown may differ between rows.

structure,endpoint,method,cell line,strain or isolate,result
Nc1nc2c(ncn2COC(CO)CCP(=O)(O)O)c(=O)[nH]1,EC50,plaque count,MRC-5,AD169,6.2 µM
Nc1ccn(C[C@@H](CO)OCP(=O)(O)O)c(=O)n1,EC50,hybridisation,HEL,AD169,0.05 µM
CC(=O)O[C@H]1[C@H](n2c(Br)nc3cc(Cl)c(Cl)cc32)OC[C@H]1OC(C)=O,EC50,virus yield,HFF,TOWNE,<0.05 µM
OC[C@@H]1O[C@H](n2c(Br)nc3cc(Cl)c(Cl)cc32)[C@@H](O)[C@H]1O,EC50,virus yield,MRC-5,AD169,0.5 µM
[N-]=[N+]=N[C@H]1C[C@@H](CO)S[C@@H]1n1cnc2c(=O)[nH]cnc21,EC50,,,,<100 µg/mL
O=C(NCCc1ccccc1)C1=Cc2ccncc2CC1,EC50,virus yield,HFF,TOWNE,>34 µM
O=C1c2ccccc2C(=O)N1C1CC2CC3CC(C2)CC1C3,EC50,plaque count,HEL,AD169,>100 µg/mL
O[C@@H]1[C@H](O)CO[C@H]1n1c(Cl)nc2cc(Cl)c(Cl)cc21,EC50,virus yield,HFF,TOWNE,<0.12 µM
Nc1ccn(C[C@H]2COP(=O)(O)CO2)c(=O)n1,EC50,plaque count,MRC-5,C8805/37-1-1 (drug-resistant mutant),0.96 µM
Nc1nc2c(ncn2C=C2CC2CO)c(=O)[nH]1,EC50,plaque count,HFF,AD169,1.2 µM
Nc1nc2c(ncn2COC(CO)CO)c(=O)[nH]1,EC90,virus yield,HFF,TOWNE,2.4 µM
O[C@@H]1[C@H](O)CO[C@H]1n1c(Br)nc2cc(Cl)c(Cl)cc21,EC50,virus yield,HFF,TOWNE,<0.06 µM
OC[C@H]1O[C@@H](n2c(Cl)nc3cc(Cl)c(Cl)cc32)[C@H](O)[C@@H]1O,EC50,virus yield,,,<0.2 µM
CC(=O)O[C@H]1[C@H](n2c(Cl)nc3cc(Cl)c(Cl)cc32)OC[C@H]1OC(C)=O,EC50,virus yield,HFF,TOWNE,<0.1 µM
CCCCCCCCCCCCCCCCCCOCCOP(=O)(O)CO[C@H](CO)Cn1ccc(N)nc1=O,EC50,plaque count,MRC-5,C8805/37-1-1 (drug-resistant mutant),0.00095 µM
C[C@@H]1O[C@@H](n2c(Cl)nc3cc(Cl)c(Cl)cc32)[C@H](O)[C@@H]1O,EC50,plaque count,HFF,R56 (BDCRB- maribavir-resistant),0.81 µM
N#CCCC12CC3CC(C1)CC(N1C(=O)c4ccccc4C1=O)(C3)C2,EC50,plaque count,HEL,AD169,>100 µg/mL
Nc1nc2c(ncn2COC(CO)CO)c(=O)[nH]1,EC50,virus yield,HFF,TOWNE,<1.6 µM
CC(C)Nc1nc2cc(Cl)c(Cl)cc2n1[C@H]1O[C@@H](CO)[C@H](O)[C@@H]1O,EC50,hybridisation,MRC-5,C9213,0.04 µM
OC[C@H]1O[C@@H](n2c(Br)nc3cc(Cl)c(Cl)cc32)[C@H](O)[C@@H]1O,EC50,plaque count,HFF,TOWNE,1 µM
Nc1ncnc2c1ncn2C=C1CC1CO,EC50,plaque count,HFF,AD169,1.3 µM
Cc1cccn2c(C3OCCS3)cnc12,EC50,,HEL,AD169,63 µM
Nc1ncnc2c1ncn2C[C@@H](CO)OCP(=O)(O)O,EC50,flow cytometry,HEL,AD169,0.37 µM
OCC(CO)OCn1c(Br)nc2cc(Cl)c(Cl)cc21,EC50,virus yield,,,<25 µM
O=C1c2ccccc2C(=O)N1CC1C2CC3CC(C2)CC1C3,EC50,plaque count,HEL,AD169,>20 µg/mL
[N-]=[N+]=N[C@@H]1C[C@@H](CO)S[C@@H]1n1ccc(=O)[nH]c1=O,EC50,,,,<100 µg/mL
O=C(NCc1ccc(Cl)cc1)c1c[nH]c2ccc(C#CCO)cc2c1=O,EC50,plaque count,,DAVIS,1 µM
O=C1c2ccccc2N(Cc2ccccc2)S(=O)(=O)N1Cc1cc(Cl)c(Cl)c(Cl)c1Cl,EC50,plaque count,MRC-5,AD169,6 µM
Cc1cccn2c(C3SCCS3)cnc12,EC50,,HEL,DAVIS,16 µM
O=C1c2ccccc2C(=O)N1CC12CC3CC(CC(O)(C3)C1)C2,EC50,plaque count,HEL,DAVIS,>100 µg/mL
Cc1ccn2c(C(SCCc3ccccc3)SCCc3ccccc3)cnc2c1,EC50,,HEL,AD169,3.1 µM
COc1ccccc1CNC(=O)C1=Cc2ccncc2CC1,EC50,plaque count,MRC-5,D16,23.7 µM
Nc1ncnc2c1ncn2C[C@H]1COP(=O)(O)CO1,EC50,hybridisation,HEL,AD169,0.16 µM
CCCCCCCCCCCCCCCCCCOCCOP1(=O)CO[C@@H](Cn2ccc(N)nc2=O)CO1,EC50,,MRC-5,AD169,0.0001 µM
Cc1ccn2c(C3OCCS3)cnc2c1,EC50,,HEL,DAVIS,>106 µM
CC(C)Oc1ccccc1CNC(=O)c1ccc2cnccc2n1,EC50,plaque count,HFF,D-10 C4,0.04 µM
CNc1ncnc2c1ncn2[C@@H]1S[C@@H](CO)C[C@@H]1N=[N+]=[N-],EC50,,,,<100 µg/mL
Nc1nc2c(ncn2C=C2CC2CO)c(=O)[nH]1,EC50,plaque count,,VR3480 (ganciclovir-resistant),1.8 µM
OC[C@H]1O[C@@H](n2c(Br)nc3cc(Cl)c(Cl)cc32)[C@H](O)[C@@H]1O,EC90,virus yield,,,1.4 µM
Nc1nc2c(ncn2COC(CO)CO)c(=O)[nH]1,EC50,plaque count,MRC-5,AD169,4.5 µM
[N-]=[N+]=N[C@@H]1C[C@@H](CO)S[C@H]1n1ccc(=O)[nH]c1=O,EC50,,,,<100 µg/mL
O=C(NCc1ccc(Cl)cc1)c1c[nH]c2ccc(CCCO)cc2c1=O,EC90,plaque count,,GDGrP53,2.8 µM